Measured values from several laboratories, pooled; numbers as filed in NIAID ChemDB.

Common to all: growth or infection tests

Percent inhibition refers to the dose given; in toxicity tests it is the harm to the cells. ECn is the concentration giving n% inhibition of infection, replication or growth. An empty or dashed field is not shown. Rows are shuffled and stem from different studies. MIC50, MIC90 and the like: level of inhibition, or share of isolates inhibited. Two numbers with a dash give a range or band.

| SMILES | species | strain or isolate | changes | cell line | read by | conditions | endpoint | dose | result |
|---|---|---|---|---|---|---|---|---|---|
| O=C(NCc1ccccc1)c1c2n(c(=O)n1-c1ccc3cn[nH]c3c1)CCN(C(=O)c1ccc(Br)c(Cl)c1)C2 | Hepatitis B virus |  |  | HepG2.117 | PCR |  | EC50 |  | 0.1–0.5 µM |
| OC[C@H]1O[C@@H](n2c(Cl)nc3cc(Cl)c(Cl)cc32)[C@H](O)[C@@H]1O | Human cytomegalovirus | Recombinant C4 (D341E) |  |  | plaque count |  | EC50 |  | 68 µM |
| COc1cc(-c2ccc(N=Nc3ccc4c(S(=O)(=O)O)cc(S(=O)(=O)O)c(N)c4c3O)c(OC)c2)ccc1N=Nc1ccc2c(S(=O)(=O)O)cc(S(=O)(=O)O)c(N)c2c1O | Adenovirus | TYPE 3 |  | Human embryonic lung cells | cytopathic effect |  | inhibition | 10 µg/mL | 0% |
| CCC(CC)O[C@@H]1C=C(C(=O)O)C[C@H](N)[C@H]1NC(C)=O | Influenza A virus | H3N2 A/X-31 |  | MDCK |  |  | EC50 |  | 0.12 µM |
| COc1ccc(-n2c(C(=O)NCc3cnccn3)c3n(c2=O)CCN(C(=O)c2ccc(Br)c(Cl)c2)C3)cc1 | Hepatitis B virus |  |  | HepG2.117 | PCR |  | EC50 |  | >5 µM |
| C=CCc1ccc(O)c(OC)c1 | Candida tropicalis | 3178 |  |  | turbidity |  | MIC90 |  | 495 µg/mL |
| O=c1[nH]c(=O)n([C@@H]2O[C@H](CO)[C@@H](O)[C@@H]2O)cc1/C=C/Cl | Varicella zoster virus | YS |  | HELF | plaque count |  | inhibition | 0.01 µg/mL | 100% |
| O=S(=O)(O)c1cccc2c(O)cccc12 | Adenovirus | TYPE 3 |  | Human amnion AV3 cells | cytopathic effect |  | inhibition | 50 µg/mL | 0% |
| COc1cc2c(cc1NC(N)=S)oc1ccccc12 | Hepatitis C virus |  |  | Ava5-EG(delta4AB)SEAP | reporter gene / fluorescence |  | EC50 |  | 0.001–1 µM |
| Nc1cc(S(=O)(=O)[O-])cc2cc(S(=O)(=O)[O-])ccc12 | Herpes simplex virus |  |  | Human amnion AV3 cells | cytopathic effect |  | inhibition | 5 µg/mL | 0% |
| COC(=O)N[C@H](C(=O)N1CCC[C@H]1c1ncc(-c2ccc(-c3ccc(-c4cnc([C@@H]5CCCN5C(=O)[C@@H](NC(=O)OC)C(C)C)[nH]4)cc3)cc2)[nH]1)C(C)C | Hepatitis C virus | 1a | M28V | Lunet | luciferase |  | EC50 |  | 0.0000208 µM |
| C/C=C\[C@@H]1C[C@H](C(=O)O)N[C@H]1[C@@H](NC(C)=O)[C@](C)(CCC)OC | Influenza A virus | H1N1 PR/8/34 |  | MDCK | plaque count |  | EC50 |  | 0.0004 µM |
| O=C(NCc1ccc(Cl)cc1)c1c[nH]c2ccc(C#CCO)cc2c1=O | Varicella zoster virus | GEI |  |  | plaque count |  | EC50 |  | 0.2 µM |
| C=Cc1cn([C@@H]2O[C@H](CO)[C@@H](O)[C@@H]2O)c(=O)[nH]c1=O | Varicella zoster virus | Kawaguchi |  | HELF | plaque count |  | inhibition | 0.1 µg/mL | 58% |
| C[C@H](NC(=O)c1c2n(c(=O)n1C)CCN(C(=O)c1ccccc1)C2)c1ccccc1 | Hepatitis B virus |  |  | HepG2.117 | PCR |  | EC50 |  | >5 µM |
| Cc1ccc2oc(=S)n(-c3ccc(C(F)(F)F)cc3)c(=S)c2c1 | Mycobacterium kansasii | 6509/96 |  |  |  | 21 d | MIC |  | 16 µM |
| Oc1ccccc1N=Cc1cccc(O)c1O | Cryptococcus gattii | 1913 ER |  |  |  |  | MIC99 |  | 11.3 µg/mL |
| CN[C@H]1CC[C@@H](c2ccc(Cl)c(Cl)c2)c2ccccc21 | Cryptococcus neoformans | 92BC2-45 |  |  | broth dilution |  | MIC90 |  | 6 µg/mL |
| Nc1nc2c(ncn2C=C2CC2CO)c(=O)[nH]1 | Human cytomegalovirus | VR3480 (ganciclovir-resistant) |  |  | plaque count |  | EC90 |  | 6.8 µM |
| Cc1cc(CCCOc2c(C)cc(-c3noc(C(F)(F)F)n3)cc2C)on1 | Rhinovirus | Isolate 41 |  | OHIO HELA-I | cytopathic effect / visual reading |  | EC50 |  | 0.05 µg/mL |
| O=c1oc2ccc(F)cc2c(=S)n1-c1ccc(Br)cc1 | Mycobacterium kansasii | My 235/80 |  |  |  | 14 d | MIC |  | 2 µM |
| Cc1nc(NCCCCNc2ccnc3cc(Cl)ccc23)nc(-c2ccccc2)c1C(=O)OC(C)C | Cryptococcus neoformans | ATCC 62066 |  |  |  |  | MIC99 |  | 8 µg/mL |
| Nc1nc(=O)n([C@@H]2O[C@H](CO)[C@@H](O)[C@@H]2F)cc1I | Varicella zoster virus | HIRAI |  | HELF | plaque count |  | inhibition | 0.1 µg/mL | 100% |
| Cc1nc(NCCCCNc2ccnc3cc(Cl)ccc23)nc(-c2ccccc2[N+](=O)[O-])c1C(=O)OC(C)C | Cryptococcus neoformans | WP |  |  |  |  | MIC99 |  | 8 µg/mL |
| CCC(C)CC(C)CCCCCCCCC(=O)N[C@H]1C[C@@H](O)[C@H](NCCN)NC(=O)[C@@H]2[C@@H](O)CCN2C(=O)[C@H]([C@H](O)CCN)NC(=O)[C@H]([C@H](O)[C@@H](O)c2ccc(O)cc2)NC(=O)[C@@H]2C[C@@H](O)CN2C(=O)[C@H]([C@@H](C)O)NC1=O | Cryptococcus gattii | CBS 11542 |  |  | broth dilution |  | MIC |  | 16 µg/mL |
| N=C(N)c1ccc2nc(-c3ccc(-c4nc5ccc(C(=N)N)cc5[nH]4)[nH]3)[nH]c2c1 | Candida albicans | Isolate 1 (strain 2-76) |  |  |  |  | MFC |  | 0.78 µg/mL |
| Oc1ccccc1N=Cc1ccccc1 | Cryptococcus gattii | 135L/03 |  |  |  |  | MIC99 |  | 8 µg/mL |
| CCC(CC)[C@H](NC(C)=O)[C@@H]1[C@H](O)[C@@H](C(=O)O)C[C@H]1N=C(N)N | Influenza A virus | Influenza A/Beijing/32/92 (H3N2) |  | MDCK |  |  | EC50 |  | 0.07 µM |
| Nc1ccccc1S(=O)(=O)O | Herpes simplex virus |  |  | Human amnion AV3 cells | cytopathic effect |  | inhibition | 10 µg/mL | 0% |
| Oc1ccccc1C=Nc1ccccc1O | Cryptococcus gattii | ATCC 24065 |  |  |  |  | MIC99 |  | 4 µg/mL |
| CC(=O)N[C@H]1[C@H]([C@H](O)[C@H](O)CO)OC(C(=O)O)=C[C@@H]1N=C(N)N | Influenza B virus | Beijing/184/93 |  | MDCK |  |  | EC50 |  | 0.03 µM |
| O=S(=O)(O)CO | Rhinovirus |  |  | Human embryonic lung cells | cytopathic effect |  | inhibition | 5 µg/mL | 0% |
| O=C(NCc1c(F)cccc1-n1cccn1)c1c2n(c(=O)n1-c1ccc(OC3CC3)cc1)CCN(C(=O)c1ccc(Br)c(Cl)c1)C2 | Hepatitis B virus |  |  | HepG2.117 | PCR |  | EC50 |  | <0.1 µM |
| Cc1cn([C@@H]2O[C@H](CO)[C@@H](O)[C@@H]2O)c(=O)[nH]c1=O | Varicella zoster virus | Asahikawa |  | HELF | plaque count |  | inhibition | 0.1 µg/mL | 0% |
| Cn1cc(C(=O)NCc2ccc(Cl)cc2)c(=O)c2cc(CN3CCOCC3)ccc21 | Varicella zoster virus | MA varicella isolate |  | HFF | plaque count |  | inhibition | 2.4 µM | 90% |
| O=c1[nH]c(=O)n([C@H]2C[C@H](O)[C@@H](CO)O2)cc1/C=C/Br | Varicella zoster virus | OKA |  | HELF | plaque count |  | inhibition | 0.001 µg/mL | 8% |
| CCCNc1ccc2c(c1)Cc1cc(NC(N)=S)ccc1-2 | Hepatitis C virus |  |  | Ava5-EG(delta4AB)SEAP | reporter gene / fluorescence |  | EC50 |  | 0.001–1 µM |
| CCC(CC)[C@H](NC(C)=O)[C@@H]1C[C@@H](C(=O)O)C[C@H]1N=C(N)N | Influenza B virus | HONG KONG/5/72 |  | MDCK |  |  | EC50 |  | 2.4 µM |
| CCn1c2ccccc2c2cc(NC(N)=S)ccc21 | Hepatitis C virus |  |  | Ava5-EG(delta4AB)SEAP | reporter gene / fluorescence |  | EC50 |  | 0.001–1 µM |
| O=[N+]([O-])c1ccc(C=Nc2ccccc2O)cc1 | Cryptococcus neoformans | ATCC 28957 |  |  |  |  | MIC99 |  | 5.7 µg/mL |
| CCO/N=C/c1ccc(OCCC2CCN(c3ccc(Cl)nn3)CC2)cc1 | Rhinovirus | 16/60 (ICAM-1 receptor group 4) |  | KB | neutral red |  | EC50 |  | 0.023 µM |
| CO[C@H]1/C=C/O[C@@]2(C)Oc3c(C)c(O)c4c(O)c(c(/C=N/N5CCN(C6CCCC6)CC5)c(O)c4c3C2=O)NC(=O)/C(C)=C\C=C\[C@H](C)[C@H](O)[C@@H](C)[C@@H](O)[C@@H](C)[C@H](OC(C)=O)[C@@H]1C | Mycobacterium avium intracellulare | 998 |  |  |  |  | MIC |  | ≤0.125 µg/mL |
| O=c1oc2ccc(Cl)cc2c(=S)n1-c1ccc(F)cc1 | Mycobacterium kansasii | 6509/96 |  |  |  | 14 d | MIC |  | 16 µM |
| O=S(=O)([O-])c1ccc(NS(=O)(=O)c2ccccc2)c2c(S(=O)(=O)[O-])cccc12 | Herpes simplex virus |  |  | Human amnion AV3 cells | cytopathic effect |  | inhibition | 10 µg/mL | 25% |
| CCCCCCNC(=S)Nc1ccc2c(c1)Cc1cc(Br)ccc1-2 | Hepatitis C virus |  |  | Ava5-EG(delta4AB)SEAP | reporter gene / fluorescence |  | EC50 |  | 0.001–1 µM |
| COc1ccc2oc(=O)n(-c3ccc(C(F)(F)F)cc3)c(=S)c2c1 | Mycobacterium kansasii | My 235/80 |  |  |  | 14 d | MIC |  | 32 µM |
| C/C=C/C/C=C/CCC(=O)[C@H]1O[C@H]1C(N)=O | Escherichia coli | SJ261 (emrB::Tn10 kan) |  |  |  |  | MIC |  | 20 µg/mL |
| CN(C)CCNC(=S)Nc1ccc2c(c1)Cc1cc(Br)ccc1-2 | Hepatitis C virus |  |  | Ava5-EG(delta4AB)SEAP | reporter gene / fluorescence |  | EC50 |  | 0.001–1 µM |

The last 6 rows once more:

SMILES	species	strain or isolate	changes	cell line	read by	conditions	endpoint	dose	result
O=c1oc2ccc(Cl)cc2c(=S)n1-c1ccc(F)cc1	Mycobacterium kansasii	6509/96				14 d	MIC		16 µM
O=S(=O)([O-])c1ccc(NS(=O)(=O)c2ccccc2)c2c(S(=O)(=O)[O-])cccc12	Herpes simplex virus			Human amnion AV3 cells	cytopathic effect		inhibition	10 µg/mL	25%
CCCCCCNC(=S)Nc1ccc2c(c1)Cc1cc(Br)ccc1-2	Hepatitis C virus			Ava5-EG(delta4AB)SEAP	reporter gene / fluorescence		EC50		0.001–1 µM
COc1ccc2oc(=O)n(-c3ccc(C(F)(F)F)cc3)c(=S)c2c1	Mycobacterium kansasii	My 235/80				14 d	MIC		32 µM
C/C=C/C/C=C/CCC(=O)[C@H]1O[C@H]1C(N)=O	Escherichia coli	SJ261 (emrB::Tn10 kan)					MIC		20 µg/mL
CN(C)CCNC(=S)Nc1ccc2c(c1)Cc1cc(Br)ccc1-2	Hepatitis C virus			Ava5-EG(delta4AB)SEAP	reporter gene / fluorescence		EC50		0.001–1 µM